Results of unrelated studies side by side (data: NIAID ChemDB).

All rows: toxicity to cultured cells; measure: CC50

Neighbouring rows are from separate reports. CCn is the concentration with n% toxicity to the cells. An empty or dashed field is not shown.

smiles	cell line	read by	value
Cc1cc(NC(=O)c2c(C(C)C)c(C(=O)C(=O)NCC(C)(C)O)n(C)c2C)ccc1F	HepG2	MTT	>30 µM
CCCCCCCCCCCCCCCCCCCC(=O)O[C@@H]1[C@@H](C)[C@@]2(O)[C@@H](C=C(CO)C[C@]3(O)C(=O)C(C)=C[C@@H]23)[C@@H]2C(C)(C)[C@]12OC(=O)CCCCCCCCCCCCCCCCCCC	C8166	MTT	>200 µM
COc1nsc(-c2ccccc2)c1C#N	L929	-	25 µM
O=C1N(CCC2(CCOc3ccc(-c4ccc(Cl)cc4)cc3)CCCCC2)CCN1c1ccncc1	RD	-	>25 µM
CN(C)c1cccc2c(S(=O)(=O)Nc3ccc(NC(=O)C(C)(C)C)cc3)cccc12	Mouse fibroblast cell lines	-	33.3 µM
CCOC(=O)CCCCCOc1cccc(CN(C(=O)c2ccc(-c3cccc(OCC(C)C)c3)cc2)C(C)C)c1	HEK 293	-	>20 µM
CSc1nsc(-c2ccc3ccccc3c2)c1C#N	L929	-	20 µM
Cc1cc(NC(=O)c2c(C3CC3)c(C(=O)C(=O)N[C@H](C)C(F)(F)F)n(C)c2C)ccc1F	HepG2	MTT	>30 µM
C=CCCC(=O)NC[C@H](O)c1ccc2c(c1)OCO2	HEK 293	-	<7.5 µM
Cc1cc(F)cc(NC(=O)c2c(C)c(C(=O)C(=O)NC(C)(C)C)n(C)c2C)c1	HepG2	MTT	>30 µM
CC(=O)O[C@@]12[C@H](OC(=O)/C=C/c3ccc(F)cc3)[C@@H](C)[C@@]3(O)[C@@H](C=C(CO)C[C@]4(O)C(=O)C(C)=C[C@@H]34)[C@@H]1C2(C)C	C8166	MTT	107 µM
Oc1ccc(-c2nc(SCC3CC3)n[nH]2)cc1	Panc-1	MTT	>100 µg/mL
CCOC(=O)/C=C1\NCCc2cc3c(cc21)OCO3	RAJI	-	<7.5 µM
CN(CCOc1ccc(-c2ccc(Cl)cc2)cc1)CCN1CCN(c2ccncc2)C1=O	RD	-	>25 µM
CSc1nsc(-c2ccc(OCc3ccccc3)cc2)c1C#N	HEP-2	-	>50 µM
FC(F)(F)c1ccc(-c2nc(=S)[nH][nH]2)cc1	Panc-1	MTT	>100 µg/mL
N#Cc1nc2c(-c3nc4ccccc4[nH]3)c(N)n(CCc3cnc[nH]3)c2nc1C#N	L6 rat skeletal myoblasts	resazurin / fluorescence	4 µM
Cc1c(Cl)cccc1-c1nc(=S)[nH][nH]1	A549	MTT	>100 µg/mL
Cc1ccc(CN(CCOc2ccc(-c3ccc(Cl)cc3)cc2)CCN2CCN(c3ccncc3)C2=O)cc1	RD	-	>12.5 µM
N#Cc1nc2c(-c3nc4ccccc4[nH]3)c(N)n(Cc3ccc(O)cc3)c2nc1C#N	L6 rat skeletal myoblasts	resazurin / fluorescence	4 µM
CNc1cccc2c(S(=O)(=O)Nc3ccc(NC(=O)C(C)(C)CO)cc3)cccc12	Human embryonic lung fibroblasts	-	125 µM
C#CCSc1n[nH]c(-c2ccc(C(F)(F)F)cc2)n1	THP-1	MTT	49.55 µg/mL
CCCCCCCCC(=O)O[C@@H]1[C@@H](C)[C@@]2(O)[C@@H](C=C(CO)C[C@]3(O)C(=O)C(C)=C[C@@H]23)[C@@H]2C(C)(C)[C@]12OC(=O)CCCCC1SCC2NC(=O)NC21	C8166	MTT	16.4 µM
CN(C)c1cccc2c(S(=O)(=O)Nc3ccc(NC(=O)C(C)(C)C(=O)O)cc3)cccc12	Human embryonic lung fibroblasts	-	250 µM
CCC1(NC(=O)C(=O)c2c(C)c(C(=O)Nc3ccc(F)c(C)c3)c(C)n2C)CCN(C(=O)c2ccnn2C)CC1	HepG2	MTT	>30 µM
CC(CCCN1CCN(c2ccncc2)C1=O)COc1ccc(-c2ccc(Cl)cc2)cc1	RD	-	>25 µM
Cc1cc(NC(=O)c2c(C)c(C(=O)C(=O)N[C@@H]3CC[C@@H](O)C[C@@H]3F)n(C)c2C)ccc1F	HepG2	MTT	>30 µM
COc1ccc(C)cc1OCCBr	RAJI	-	>20 µM
N#Cc1nc2c(-c3nc4ccccc4[nH]3)c(N)n(CCc3ccc(S(N)(=O)=O)cc3)c2nc1C#N	L6 rat skeletal myoblasts	resazurin / fluorescence	>100 µM
Cc1nc(-c2ccc(OCCC(C)CCN3CCN(c4ccncc4)C3=O)cc2)no1	RD	-	>6.25 µM
NNC(=O)c1ccncc1	THP-1	MTT	>100 µg/mL
Cc1c(C(=O)Nc2ccc(F)c(S(C)(=O)=O)c2)c(C)n(C)c1C(=O)C(=O)NC(C)(C)C	HepG2	MTT	>30 µM
Oc1[nH]c2ccccc2c1N=NC(=S)Nc1cccc(Cl)c1	hRD	-	>25 µM
CC1=C[C@H]2[C@@]3(O)[C@H](C)[C@@H](O)[C@]4(OC(=O)CCCCCN5CCN(C(=O)CC6(C)C(O)CCC7(C)C8CCC(=O)C8(C)CCC67)CC5)[C@H]([C@@H]3C=C(CO)C[C@]2(O)C1=O)C4(C)C	C8166	MTT	16.4 µM
COc1ccc(CCn2c(N)c(-c3nc4ccccc4n3C)c3nc(C#N)c(C#N)nc32)cc1	L6 rat skeletal myoblasts	resazurin / fluorescence	188 µM
CC(=O)N1CC[C@@H](NC(=O)C(=O)c2c(C)c(C(=O)Nc3ccc(F)c(C)c3)c(C)n2C)C(F)(F)C1	HepG2	MTT	>30 µM
N#Cc1nc2c(-c3nc4ccccc4[nH]3)c(N)n(CCc3ccc(F)cc3)c2nc1C#N	L6 rat skeletal myoblasts	resazurin / fluorescence	129 µM
O=C1N(CCOCCOc2ccc(-c3ccc(Cl)cc3)cc2)CCN1c1ccncc1	RD	-	>25 µM
Cc1[nH]c2ccccc2c1CCNCc1ccc(/C=C/C(=O)NO)cc1	ACH2	fluorescence	>5 µM
COc1cccc(NC(=O)N=Nc2c(O)[nH]c3ccccc23)c1	hRD	-	>25 µM
CN(C)CCCn1c(N)c(-c2nc3ccccc3[nH]2)c2nc(C#N)c(C#N)nc21	L6 rat skeletal myoblasts	resazurin / fluorescence	1 µM
CN(C)c1cccc2c(S(=O)(=O)Nc3ccc(NC(=O)C(C)(C)CCl)cc3)cccc12	Human embryonic lung fibroblasts	-	31.3 µM
CSc1nsc(-c2ccc(Cl)cc2)c1C#N	L929	-	5 µM
S=c1nc(-c2ccc(Cl)cc2)[nH][nH]1	Panc-1	MTT	>100 µg/mL
O=C1N(CCC(CCOc2ccc(-c3ccc(Cl)cc3)cc2)c2ccccc2)CCN1c1ccncc1	RD	-	>25 µM
CCCN(Cc1cccc(OCCCCCC(=O)OCC)c1)C(=O)c1ccc(-c2ccc3c(c2)OCO3)cc1	RAJI	-	>20 µM
COc1ccc(CCn2c(N)c(-c3nc4ccccc4[nH]3)c3nc(C#N)c(C#N)nc32)cc1OC	L6 rat skeletal myoblasts	resazurin / fluorescence	148 µM
CC1=C[C@H]2[C@@]3(O)[C@H](C)[C@@H](OC(=O)CCCCCCCCCCBr)[C@]4(OC(=O)CCCCCCCCCCBr)[C@H]([C@@H]3C=C(CO)C[C@]2(O)C1=O)C4(C)C	C8166	MTT	>200 µM
Cc1cccc(-c2nc(=S)[nH][nH]2)c1	Panc-1	MTT	>100 µg/mL
CCN(C(=O)C(=O)c1c(C)c(C(=O)Nc2ccc(F)c(C)c2)c(C)n1C)C(C)C	HepG2	MTT	>30 µM
Cc1cccc(NC(=O)N=Nc2c(O)[nH]c3ccccc23)c1	hRD	-	>25 µM
O=C1N(CCN(CCOc2ccc(-c3ccc(Cl)cc3)cc2)Cc2ccccc2)CCN1c1ccncc1	RD	-	>5 µM
Oc1[nH]c2ccccc2c1N=NC(=S)Nc1ccccc1Cl	hRD	-	>25 µM
CCN(CC)CCCn1c(N)c(-c2nc3ccccc3[nH]2)c2nc(C#N)c(C#N)nc21	L6 rat skeletal myoblasts	resazurin / fluorescence	1 µM
CSc1nsc(-c2ccc(O)cc2)c1C#N	L929	-	2 µM
CC(C)N(Cc1cccc(OCCCCCC(=O)OC(=O)O)c1)C(=O)c1ccccc1	HEK 293	-	>20 µM
C#CCS(=O)(=O)c1nc(-c2ccc([N+](=O)[O-])c(C(F)(F)F)c2)n[nH]1	Panc-1	MTT	>100 µg/mL

Repeating the final 8 entries:

| smiles | cell line | read by | value |
|---|---|---|---|
| CCN(C(=O)C(=O)c1c(C)c(C(=O)Nc2ccc(F)c(C)c2)c(C)n1C)C(C)C | HepG2 | MTT | >30 µM |
| Cc1cccc(NC(=O)N=Nc2c(O)[nH]c3ccccc23)c1 | hRD | - | >25 µM |
| O=C1N(CCN(CCOc2ccc(-c3ccc(Cl)cc3)cc2)Cc2ccccc2)CCN1c1ccncc1 | RD | - | >5 µM |
| Oc1[nH]c2ccccc2c1N=NC(=S)Nc1ccccc1Cl | hRD | - | >25 µM |
| CCN(CC)CCCn1c(N)c(-c2nc3ccccc3[nH]2)c2nc(C#N)c(C#N)nc21 | L6 rat skeletal myoblasts | resazurin / fluorescence | 1 µM |
| CSc1nsc(-c2ccc(O)cc2)c1C#N | L929 | - | 2 µM |
| CC(C)N(Cc1cccc(OCCCCCC(=O)OC(=O)O)c1)C(=O)c1ccccc1 | HEK 293 | - | >20 µM |
| C#CCS(=O)(=O)c1nc(-c2ccc([N+](=O)[O-])c(C(F)(F)F)c2)n[nH]1 | Panc-1 | MTT | >100 µg/mL |